The chains behind the UniProt entries cited, without tags or fusion partners. Residues count along the entry.
UniProt Q5NHE7, 1-805: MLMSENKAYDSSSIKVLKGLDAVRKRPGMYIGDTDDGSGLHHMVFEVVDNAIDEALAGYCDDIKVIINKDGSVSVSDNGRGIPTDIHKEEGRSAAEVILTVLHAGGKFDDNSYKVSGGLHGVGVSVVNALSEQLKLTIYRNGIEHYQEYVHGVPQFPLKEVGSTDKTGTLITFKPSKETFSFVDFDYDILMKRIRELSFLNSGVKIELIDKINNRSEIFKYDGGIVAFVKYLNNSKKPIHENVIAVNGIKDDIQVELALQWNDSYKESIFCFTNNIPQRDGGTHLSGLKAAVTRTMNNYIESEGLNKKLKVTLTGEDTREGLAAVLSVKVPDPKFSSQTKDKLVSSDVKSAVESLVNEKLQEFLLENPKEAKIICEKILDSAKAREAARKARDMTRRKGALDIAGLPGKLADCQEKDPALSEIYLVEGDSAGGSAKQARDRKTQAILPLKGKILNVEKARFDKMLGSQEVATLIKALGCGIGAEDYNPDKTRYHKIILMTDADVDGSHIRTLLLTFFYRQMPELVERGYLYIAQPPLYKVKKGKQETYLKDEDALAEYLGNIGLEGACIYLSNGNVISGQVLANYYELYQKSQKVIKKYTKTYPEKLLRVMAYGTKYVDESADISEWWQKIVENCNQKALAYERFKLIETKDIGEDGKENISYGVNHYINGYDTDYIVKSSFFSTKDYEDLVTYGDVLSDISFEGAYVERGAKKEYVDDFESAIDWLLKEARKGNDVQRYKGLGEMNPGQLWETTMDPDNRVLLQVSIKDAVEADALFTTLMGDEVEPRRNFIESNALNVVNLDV

According to paper PMC3176662 (Journal of biomolecular screening, 2011):

Molecular target: Francisella tularensis GyrB (ATP binding domain) (Francisella tularensis subsp. tularensis, UniProt Q5NHE7)
Assay: biochemical

CO[C@@H]1[C@@H](OC(N)=O)[C@@H](O)[C@H](Oc2ccc3c(O)c(NC(=O)c4ccc(O)c(CC=C(C)C)c4)c(=O)oc3c2C)OC1(C)C [novobiocin]
IC50: 33 nM
